± gives the standard deviation of the averaged measurements. Only a part is listed here, and it is no random draw.
Key:
DLD1 [1] = assay: cell viability (CellTiter-Glo) relative to plate median (fraction of plate median); higher = more viable cells; settings: 5 µM; treatment time 24 h; reporter: 7TFP
Method in brief: (§1)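 Colorectal cancer cell lines stably carrying lentiviral TCF/Wnt firefly luciferase reporters (7TFP or TCF4/Wnt) were plated in 384-well plates and, 24 h later, given library compounds at a final 5 µM for 24 h. Firefly luciferase or CellTiterGlo luminescence was read on parallel plates with a Tecan F500 reader. Each well's signal was normalised to the plate median in webcellHTS2 (additive, without log transformation). Values are the mean of two independent replicates.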

HCT116 = assay: as above; settings: 5 µM; treatment time 24 h; reporter: TCF4/Wnt
Method in brief: as §1

SW480 [2] = assay: as above; settings: 5 µM; treatment time 24 h; reporter: 7TFP
Method in brief: as §1

DLD1 [3] = assay: TCF/Wnt firefly luciferase reporter signal relative to plate median (fraction of plate median); higher = higher Wnt reporter signal; settings: 5 µM; treatment time 24 h; reporter: 7TFP
Method in brief: as §1

SW480 [4] = assay: as above; settings: 5 µM; treatment time 24 h; reporter: 7TFP
Method in brief: as §1

Row | Compound | cell viability (DLD1 [1]) | cell viability (HCT116) | cell viability (SW480 [2]) | TCF/Wnt firefly luciferase reporter signal (DLD1 [3]) | TCF/Wnt firefly luciferase reporter signal (SW480 [4])
1 | CC1=C[C@H]2O[C@@H]3C[C@H]4OC(=O)/C=C\C=C\C(=O)OCC[C@@H](C)[C@H](O)C(=O)OC[C@@]2(CC1)[C@]4(C)[C@]31CO1 [Verrucarin A] | 0.896 ± 0.025 | 0.474 ± 0.14 | 1.08 | 0.254 ± 0.0099 | 0.325 ± 0.1
2 | CC1=C[C@H]2O[C@@H]3C[C@H]4OC(=O)/C=C\C=C\C(=O)OCC/C(C)=C/C(=O)OC[C@@]2(CC1)[C@]4(C)[C@]31CO1 [Verrucarin J] | 0.911 ± 0.097 | 0.447 ± 0.026 | 1.05 ± 0.021 | 0.304 ± 0.081 | 0.299 ± 0.02
3 | CC(=O)O[C@@H]1C[C@H]2O[C@@H]3C(C)=CCC[C@]3(C)[C@]1(C)[C@]21CO1 [Trichodermin] | 0.907 ± 0.015 | 0.831 ± 0.063 | 0.951 ± 0.042 | 0.797 ± 0.15 | 0.835 ± 0.15
